## Primary screen of a compound library

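Phenotypic screen: M. tuberculosis growth, cholesterol and DPPC medium, 4 days; the read-out is not stated. Concentration: 500 µM. The record gives no direction; compounds that gave an IC50 in retests scored well above the rest, so higher reads as more growth inhibition. About 18,000 compounds were tested under these conditions; 5% (about 900) showed 50% or more at least once.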

Each number is a percent effect as filed. How 0% and 100% were set is not recorded. Most values in the screen are low, and negative values occur. The entries come from a sample that favours strong results.

| # | SMILES | effect |
|---|---|---|
| 1 | `CN1CCN(Cc2cccc3c2OCO3)CC1` | 7.843 |
| 2 | `CCNC(=O)C1CCCN(c2ccncc2Cl)C1` (configuration not stated) | 86.2 |
| 3 | `CN(C)CCOc1ccc(NS(C)(=O)=O)cc1` | -3.19 |
| 4 | `COc1cccc(CCN)n1` | 53.42 |
| 5 | `CSCc1noc(CN2CCN(C3CCNC3)CC2)n1` (configuration not stated) | -6.871 |
| 6 | `COc1cc(-c2nnn(C)n2)ccc1O` | 14.72 |
| 7 | `CCc1noc(C2(O)CCNC2)n1` (configuration not stated) | 7.877 |
| 8 | `COc1ccc(CCN)c(F)c1` | 14.02 |
| 9 | `CC(C(=O)NCc1ccc2c(c1)OCCO2)S(C)(=O)=O` (configuration not stated) | -0.773 |
| 10 | `CCC(C)(C)NC(=O)c1nnn(-c2ccccc2)c1C` | 66.15 |
| 11 | `Cc1cnccc1NCCNC(=O)c1cccc(N)n1` | 12.69 |
| 12 | `O=C(NCC1(O)CCNC1)c1cccc(OC(F)F)c1` (configuration not stated) | 12.79 |
| 13 | `CCc1ncnc(N(CC)CC(N)=O)c1F` | 5.287 |
| 14 | `Nc1cnccc1NCCN1CCOCC1` | -3.564 |
| 15 | `CC(NS(C)(=O)=O)C(=O)NC1Cc2ccccc2C1` (configuration not stated) | -0.02781 |
| 16 | `COC(=O)c1[nH]cc(-c2ccccc2)c1N` | 53.68 |
| 17 | `Cc1cnc(C2CCCN(C(=O)c3nc(=O)[nH][nH]3)C2)s1` (configuration not stated) | 4.093 |
| 18 | `CC(C#N)NC(=O)c1sccc1OC(F)F` (configuration not stated) | -4.818 |
| 19 | `CCOc1ccc(-n2c(CCN)n[nH]c2=O)cc1` | 5.344 |
| 20 | `NC(=O)C(c1ccccc1)N1CCC2(CC1)OCCO2` (configuration not stated) | 13.82 |
| 21 | `Cc1cccc(C(=O)NCCCNS(C)(=O)=O)c1O` | 17.64 |
| 22 | `CCSCCNC(=O)c1ccc(-n2ccnc2)cc1` | 18.85 |
| 23 | `NCc1ccn(-c2ccc(F)cc2)n1` | 28.37 |
| 24 | `Cc1ccc2ncc(CCN)cc2c1` | 23.78 |
| 25 | `CC1CCCN(CC(=O)Nc2ccccc2C(N)=O)C1` (configuration not stated) | 66.77 |
| 26 | `CN(C)C(=O)NCCNC(=O)NCc1ccco1` | 10.02 |
| 27 | `Cc1nn(C)c(C)c1CCC(=O)N1C[C@H]2CC[C@@H](C1)N2` | 4.762 |
| 28 | `Cn1cnc(S(=O)(=O)NCCc2cccnc2)c1Cl` | -5.336 |
| 29 | `N#Cc1sccc1N1CCNCC1` | 2.916 |
| 30 | `CCC[C@H]1CN(C(=O)c2cccc(OC)c2C)C[C@@H]1N` | 13.61 |
| 31 | `COCc1nn(Cc2csc(C(C)C)n2)c(=O)o1` | 70.08 |
| 32 | `CCOc1nnc(CNCC2CCN(CCO)CC2)s1` | -9.97 |
| 33 | `Cn1ccc(C(=O)NCc2csc(Br)c2)cc1=O` | 39.25 |
| 34 | `O=S1(=O)CCC(NC2CCCC2)C1` (configuration not stated) | -7.93 |
| 35 | `COc1ccc(-c2noc(C3(O)CCCC3)n2)cn1` | 73.6 |
| 36 | `CCN1CCC(NC(=O)C2CCCC2)CC1` | 8.132 |
| 37 | `C[C@@H]1CN(C(=O)CN2CCCC2)CC[C@@]1(O)C1CC1` | 8.458 |
| 38 | `CNCC(O)CN1CCc2ccccc2CC1` (configuration not stated) | 85.92 |
| 39 | `Cc1cccc2c1OCCC2N` (configuration not stated) | 8.446 |
| 40 | `NCCCc1ccccc1F` | -25.23 |
| 41 | `CCc1cccnc1C(C)=O` | -11.24 |
| 42 | `O=C(NCc1nnc2ccccn12)C1CCOCC1` | -17.68 |
| 43 | `OC1CCN(C2CCNCC2)C1` (configuration not stated) | -0.8637 |
| 44 | `Cc1nccc(N2CCN(C(=O)C3CC=CC3)CC2)n1` | 10.89 |
| 45 | `N#CCc1ccc(CN)cc1` | 74.95 |
| 46 | `CNc1cc(C(=O)NCC(OC)c2cccs2)ccn1` (configuration not stated) | 14.59 |
| 47 | `OCC1CCN(Cc2ccccc2)CC1` | 8.914 |
| 48 | `CCCNC(=O)CSc1nnc(NCC2CCCO2)s1` (configuration not stated) | 8.722 |
| 49 | `NC1CC(c2cc(NCC3(CO)CCC3)ncn2)C1` (configuration not stated) | 13.36 |
| 50 | `c1ccc(CN2CCC(N3CCCC3)CC2)nc1` | 11.27 |
| 51 | `Cc1cc(CN2CCN(C(=O)N(C)C)CC2)on1` | 5.923 |
| 52 | `CN(CCN1CCOCC1)C1CCNCC1` | -2.479 |
| 53 | `CCc1cc(C)c(C(=O)Nc2ccc(C(N)=O)nc2)o1` | 95.47 |
| 54 | `COC(=O)c1c[nH]c(SCc2cnc(C)s2)n1` | -0.5796 |
| 55 | `O=C(NCCCOC(F)F)NCc1ccc(Br)o1` | 66.47 |
| 56 | `COCCCN1CCN(c2ccccc2OC)CC1` | 36.15 |
| 57 | `NCC1(OCCO)CCOCC1` | -7.31 |
| 58 | `CC(N)c1nc(-c2ccc(Br)cc2)c[nH]1` (configuration not stated) | 101.6 |
| 59 | `CC(C#N)N1CCC(C(=O)NCc2cccs2)CC1` (configuration not stated) | 11.49 |
| 60 | `CNCCCNC(=O)c1coc(Br)c1` | -17.26 |
| 61 | `COC(=O)CS(=O)(=O)c1ccc(C)c(Cl)c1` | 118.5 |
| 62 | `CN(C)CCN(C)Cc1ccc(N)nc1` | -3.159 |
| 63 | `CC(=O)N1CCN(CC(O)COc2ccccc2)CC1` (configuration not stated) | 5.372 |
| 64 | `NCCCc1nc2c(s1)CCCC2` | 0.6775 |
| 65 | `Nc1nnc(SCc2coc(-c3ccccc3)n2)[nH]1` | 49.37 |
| 66 | `NS(=O)(=O)CCNC(=O)c1ccc(-c2cccs2)s1` | -25.58 |
| 67 | `CCN1CCN(c2ccc(C#N)cn2)CC1` | 7.735 |
| 68 | `CCCN(CC(=O)NC)C(=O)c1ccc(C)[nH]c1=O` | 4.377 |
| 69 | `O=C1CCN(Cc2ccccc2)C2(CC2)C1` | 14.51 |
| 70 | `COC(=O)CCn1cc(C(N)=O)cn1` | -0.5961 |
| 71 | `Cn1cc(CN2CCCC(CO)(CC3CC3)C2)cn1` (configuration not stated) | 3.952 |
| 72 | `CCOCCC(=O)N1CCN(c2ccc(F)cc2)CC1` | 70.18 |

For reference, 4 entries once more:

SMILES	effect
N#CCc1ccc(CN)cc1	74.95
Cc1ccc2ncc(CCN)cc2c1	23.78
COc1cc(-c2nnn(C)n2)ccc1O	14.72
NC1CC(c2cc(NCC3(CO)CCC3)ncn2)C1 (configuration not stated)	13.36

Source: ChEMBL document CHEMBL3988442, “University of Dundee, Small-Polar-MMV Screening Library” (2021).